Pooled drug test results. Numbers come from NIAID ChemDB, via PubChem.

Shared fields: tests in culture; species: HIV-1

Conditions beyond the fields shown may differ between rows. ECn is the concentration giving n% inhibition of infection, replication or growth. Blank or dashed fields: not listed here.

structure | cells | method | measure | conditions | strain or isolate | mutations | result
CC(C)C1=C2[C@H]3CC[C@@H]4[C@@]5(C)CC[C@H](OC(=O)CC(C)(C)C(=O)O)C(C)(C)[C@@H]5CC[C@@]4(C)[C@]3(C)CC[C@@]2(C(=O)N2CCC(O)CC2)CC1=O | MT-2 | RT activity | EC50 | 30% human serum | IIIB |  | <0.199 µM
Cc1nc2cc3nn2c(c1[C@H](OC(C)(C)C)C(=O)O)-c1ccc2c(c1Cl)N(CCCCCCOc1cccc(c1)-c1cccc-3c1)CCO2 | MT-2 |  | EC50 | 10% FBS | NL4-3 |  | 0.03 µM
Cc1nnc(C(C)C)n1C1C[C@H]2CC[C@@H](C1)N2CC[C@H](NC(=O)C1CCC(F)(F)CC1)c1ccccc1 | TZM-bl | luciferase | EC50 |  | NLAD8 |  | 0.208 µM
O=C(OC1[C@H](OC(=O)c2cc(O)c(O)c(O)c2)CC(OC(=O)c2cc(O)c(O)c(O)c2)(C(=O)O)C[C@H]1OC(=O)c1cc(O)c(O)c(O)c1)c1cc(O)c(O)c(O)c1 | H9 | p24 | EC50 |  | IIIB |  | ~6.25 µM
[2H]C(CCCCN)(CNC[C@H](O)[C@@]12CC[C@]3(C)[C@H](CC[C@@H]4[C@@]5(C)CC[C@H](OC(=O)[C@H]6C[C@@H](C(=O)O)C6(C)C)C(C)(C)[C@@H]5CC[C@]43C)C1=C(C(C)C)C(=O)C2)NC(=O)c1ccc(Cl)cc1 | MT-2 | p24 / ELISA | EC50 |  | 92HT599 |  | <1 µM
O=c1cc(Cc2ccc3ccccc3c2)nc(SC2CCCC2)[nH]1 | H9(HIV-1(IIIB)) + H9 | cytopathic effect / MTT | EC50 |  | IIIB |  | >100 µM
CCCN(CCCC[C@H](NC(C)=O)C(=O)NCc1ccccc1)C(=O)NC | CEM-IW + CEM | cytopathic effect / XTT | EC50 |  | IIIB |  | >100 µM
CCNc1nc(Nc2ccc(C#N)cc2F)nc(Oc2ccc3ccccc3c2Br)n1 | MT-4 | MTT | EC50 |  | IIIB |  | 2.05 µM
CC(C)C1=C2[C@H]3CC[C@@H]4[C@@]5(C)CC[C@H](OC(=O)CC(C)(C)C(=O)O)C(C)(C)[C@@H]5CC[C@@]4(C)[C@]3(C)CC[C@@]2(C(=O)N2CCNCC2)CC1=O | MT-2 | RT activity | EC50 | 30% human serum | IIIB |  | <0.199 µM
C=CCNc1nc(Nc2ccc(C#N)cc2F)nc(Oc2ccc3ccccc3c2Cl)n1 | MT-4 | MTT | EC50 |  | IIIB |  | 4.911 µM
CC(C)C1=C2[C@H]3CC[C@@H]4[C@@]5(C)CC[C@H](OC(=O)[C@H]6C[C@@H](C(=O)O)C6(C)C)C(C)(C)[C@@H]5CC[C@@]4(C)[C@]3(C)CC[C@@]2([C@@H](O)CNC(=O)c2ccccn2)CC1=O | MT-2 | p24 / ELISA | EC50 |  | 92HT599 |  | <1 µM
O=C(N/N=C/c1ccc(O)cc1)Nc1cccc2nsnc12 | Cf2Th-CD4/CCR5 | cell fusion / luminescence | EC50 | pseudotyped | YU2 | HXBc2-YU2 V3 chimeras | 20.2 µM
O=C1CC(C(=O)N(CCCN2CCC(Cc3ccccc3)CC2)c2ccccc2)CN1Cc1ccccc1 | MOLT-4-CCR5+ + MOLT-4 | luciferase | EC50 |  | JR-FL R5 |  | 0.49 µM
Cc1cn([C@H]2C=C[C@@H](OCP(=O)(O)O)O2)c(=O)[nH]c1=O | MT-4 | cytopathic effect | EC50 |  |  |  | 12 µM
CC(C)C1=C2[C@H]3CC[C@@H]4[C@@]5(C)CC[C@H](OC(=O)CC(C)(C)C(=O)O)C(C)(C)[C@@H]5CC[C@@]4(C)[C@]3(C)CC[C@@]2(C(=O)N2C3CCC2CN(C(=O)OC(C)(C)C)C3)CC1=O | MT-2 | RT activity | EC50 | 30% human serum | IIIB |  | <0.199 µM
Cc1ccc(Oc2nc(Nc3ccc(C#N)cc3F)nc(NC(C)C)n2)cc1 | MT-4 | MTT | EC50 |  | IIIB |  | 18.3 µM
C=CCN(N=O)C(=O)NCCC[C@H](NC(C)=O)C(=O)NCc1ccccc1 | CEM-IW + CEM | cytopathic effect / XTT | EC50 |  | IIIB |  | >100 µM
COC(=O)c1ccc(OC(C)C(=O)N2CCC(=C(c3ccccc3)c3ccccc3)CC2)c(OC)c1 | HeLa CD4 | luciferase / reporter gene | EC50 |  |  |  | ≤1 µM
COC(CC(C)C(O)/C=C/C=C/CNC(=O)C(C)(C)C(O)\C(C)=C/C=C\C=C\Cc1cnc(C)o1)C1(O)C(C)C(=O)N(C)C12C(=O)OC2C | U-937 | RT activity | EC50 |  |  |  | <10 µg/mL
CCCc1cc(=O)oc2c3c(c4c(c12)OC(C)(C)CC4)O[C@@H](C)[C@H](C)[C@@H]3O | CEM + CEM-SS | XTT | EC50 |  | SK1 |  | 0.3 µM
C[C@@H](O)[C@H](NC(=O)[C@H](Cc1ccc(O)cc1)NC(=O)[C@H](CC(N)=O)NC(=O)[C@@H](NC(=O)[C@@H](N)CO)[C@@H](C)O)C(=O)O | A3.01 | RT activity | EC50 |  | LAV |  | <0.001 µM
Cc1c(C(C)c2c(F)cccc2F)nc(N(C)C)[nH]c1=O | MT-4 | MTT | EC50 |  |  | Y181C resistant | 0.7 µM
CC(C)=CCOc1cc(NC(=S)c2ccoc2C)ccc1Cl | CEM | syncytia | EC50 |  | IIIB | RT-Y188L | 0.05 µg/mL
CC(C)C1=C2[C@H]3CC[C@@H]4[C@@]5(C)CC[C@H](OC(=O)[C@H]6C[C@@H](C(=O)O)C6(C)C)C(C)(C)[C@@H]5CC[C@@]4(C)[C@]3(C)CC[C@@]2(CC(=O)NC(C)(C)c2ccccc2)CC1=O | MT-2 | p24 / ELISA | EC50 |  | 92HT599 |  | <1 µM
CC(Oc1cccc2ncccc12)C(=O)N1CC/C(=C(\C#N)c2ccccc2)CC1C | HeLa CD4 | luciferase / reporter gene | EC50 |  |  |  | ≤1 µM
Cc1cc(C(=O)NCC[C@@]23CC[C@]4(C)[C@H](CC[C@@H]5[C@@]6(C)CC[C@H](OC(=O)[C@H]7C[C@@H](C(=O)O)C7(C)C)C(C)(C)[C@@H]6CC[C@]54C)C2=C(C(C)C)C(=O)C3)c(C)o1 | MT-2 | p24 / ELISA | EC50 |  | 92HT599 |  | <1 µM
CCCCN1C(=O)N(Cc2ccc3c(N)n[nH]c3c2)[C@H](Cc2ccccc2)[C@H](O)[C@@H](O)[C@H]1Cc1ccccc1 | MT-2 |  | EC90 |  | RF |  | <1 µM
Cn1nc(NS(C)(=O)=O)c2c(Cl)ccc(-n3c(C(Cc4cc(F)cc(F)c4)NC(=O)Cn4nc(C(F)F)c5c4C(F)(F)[C@@H]4C[C@H]54)nccc3=O)c21 | MT-2 | luminescence | EC50 |  | NL4-3 |  | 0.0327 µM
O=C1Nc2ccc(Cl)c(O)c2[C@@](C#CC2CC2)(C(F)(F)F)N1 | MT-4 | p24 | EC50 |  |  | RT-K103N | <0.028 µM
CNc1nc(Nc2ccc(C#N)cc2F)nc(Oc2ccc3ccccc3c2Br)n1 | MT-4 | MTT | EC50 |  | IIIB |  | 0.36 µM
[2H]C(CCCN)(CNC(=O)c1ccc(Cl)cc1)NC(=O)C[C@@]12CC[C@]3(C)[C@H](CC[C@@H]4[C@@]5(C)CC[C@H](OC(=O)[C@H]6C[C@@H](C(=O)O)C6(C)C)C(C)(C)[C@@H]5CC[C@]43C)C1=C(C(C)C)C(=O)C2 | MT-2 | p24 / ELISA | EC50 |  | 92HT599 |  | <1 µM
C[C@@H](O)[C@H](N)C(=O)N[C@H](C(=O)N[C@@H](CC(N)=O)C(=O)N[C@@H](Cc1ccc(O)cc1)C(=O)N[C@H](C(=O)O)[C@@H](C)O)[C@@H](C)O | A3.01 | RT activity | EC50 |  | LAV |  | <0.001 µM
CC(C(=O)O)C(C)C(=O)N[C@@H](Cc1ccccc1)[C@H](O)C(=O)N1CSC(C)(C)[C@H]1C(=O)NC(C)(C)C | MT-4 |  | EC50 |  |  |  | 225 µM
O=C1Nc2ccc(Cl)c3c2[C@](C(F)(F)F)(C=C(c2cccnc2)O3)N1 | MT-4 | p24 | EC90 |  |  | RT-K103N | 0.076 µM
Cc1ccc(C(=O)NC(C)(C)CNC(=O)C[C@@]23CC[C@]4(C)[C@H](CC[C@@H]5[C@@]6(C)CC[C@H](OC(=O)[C@H]7C[C@@H](C(=O)O)C7(C)C)C(C)(C)[C@@H]6CC[C@]54C)C2=C(C(C)C)C(=O)C3)cc1 | MT-2 | p24 / ELISA | EC50 |  | 92HT599 |  | <1 µM
CC(=O)Oc1ccccc1C(=O)N(C(=S)OCCOc1ccccc1)c1ccccc1 |  |  | EC50 |  |  |  | 9.5 µM
COC(=O)c1ccc(OC(C)C(=O)N2CCC(=C(c3ccccc3)c3nnc(C)o3)CC2)c(OC)c1 | HeLa CD4 | luciferase / reporter gene | EC50 |  |  |  | ≤1 µM
C=CCNC(=O)N(CCC)CCCC[C@H](NC(C)=O)C(=O)NCc1ccccc1 | CEM-IW + CEM | cytopathic effect / XTT | EC50 |  | IIIB |  | >100 µM
CO[C@@H]1[C@@H](OC(=O)c2ccc(C)[nH]2)[C@@H](O)C(Oc2ccc3c(O)c(NC(=O)c4c[nH]c(C(=O)Nc5c(O)c6ccc(OC7OC(C)(C)[C@H](OC)[C@@H](OC(=O)c8ccc(C)[nH]8)[C@H]7O)c(C)c6oc5=O)c4C)c(=O)oc3c2C)OC1(C)C | C8166 | p24 / antigen | EC50 |  | NL4-3 |  | 0.33 µM
CC(Oc1cccc2ncccc12)C(=O)N1CCC(=C(c2ccccc2)c2cccnc2)CC1 | HeLa CD4 | luciferase / reporter gene | EC50 |  |  |  | >1 µM
C=CCNc1nc(Nc2ccc(C#N)cc2F)nc(Oc2ccc(C)cc2)n1 | MT-4 | MTT | EC50 |  | IIIB |  | 4.35 µM
CC(C)C1=C2[C@H]3CC[C@@H]4[C@@]5(C)CC[C@H](OC(=O)CC(C)(C)C(=O)O)C(C)(C)[C@@H]5CC[C@@]4(C)[C@]3(C)CC[C@@]2(C(=O)N2CCN(C(=O)OC(C)(C)C)CC2)CC1=O | MT-2 | RT activity | EC50 | 30% human serum | IIIB |  | <0.199 µM
O=C1Nc2ccc(Cl)cc2[C@@](/C=C/C2CC2)(C(F)(F)F)N1 | MT-4 | p24 | EC50 |  |  | RT-K103N | <0.027 µM
C=CCNC(=O)N(CCCC[C@H](NC(C)=O)C(=O)NCc1ccccc1)Cc1ccccc1 | CEM-IW + CEM | cytopathic effect / XTT | EC50 |  | IIIB |  | >100 µM
CCNc1nc(Nc2ccc(C#N)cc2F)nc(Oc2ccc3ccccc3c2Cl)n1 | MT-4 | MTT | EC50 |  | IIIB |  | 1.618 µM
COc1c(Cl)ccc2c1[C@@](C#Cc1ccccc1)(C(F)(F)F)NC(=O)N2 | MT-4 | p24 | EC90 |  |  | RT-K103N | 0.113 µM
c1ccc(COC2C3COC(O3)C(OCc3ccccc3)C2OCc2ccccc2)cc1 | MT-4 | MTT | EC50 |  |  |  | 2.14 µg/mL
CCCN(CCCC[C@H](NC(C)=O)C(=O)NCc1ccccc1)C(=O)NCCCl | CEM-IW + CEM | cytopathic effect / XTT | EC50 |  | IIIB |  | >100 µM
Cn1nc(NS(C)(=O)=O)c2c(Cl)ccc(-n3c([C@@H](Cc4cc(F)cc(F)c4)NC(=O)Cn4nc(C(F)F)c5c4C(F)(F)[C@@H]4C[C@H]54)nccc3=O)c21 | MT-2 | luminescence | EC50 |  | NL4-3 |  | 0.0127 µM
C=CNc1nc(Nc2ccc(C#N)cc2F)nc(Oc2ccc3ccccc3c2Br)n1 | MT-4 | MTT | EC50 |  | IIIB |  | 1.173 µM

A second listing of 6 rows from above:

Cc1cc(C(=O)NCC[C@@]23CC[C@]4(C)[C@H](CC[C@@H]5[C@@]6(C)CC[C@H](OC(=O)[C@H]7C[C@@H](C(=O)O)C7(C)C)C(C)(C)[C@@H]6CC[C@]54C)C2=C(C(C)C)C(=O)C3)c(C)o1 ; cells: MT-2 ; method: p24 / ELISA ; measure: EC50 ; strain or isolate: 92HT599 ; result: <1 µM
COC(=O)c1ccc(OC(C)C(=O)N2CCC(=C(c3ccccc3)c3nnc(C)o3)CC2)c(OC)c1 ; cells: HeLa CD4 ; method: luciferase / reporter gene ; measure: EC50 ; result: ≤1 µM
[2H]C(CCCCN)(CNC[C@H](O)[C@@]12CC[C@]3(C)[C@H](CC[C@@H]4[C@@]5(C)CC[C@H](OC(=O)[C@H]6C[C@@H](C(=O)O)C6(C)C)C(C)(C)[C@@H]5CC[C@]43C)C1=C(C(C)C)C(=O)C2)NC(=O)c1ccc(Cl)cc1 ; cells: MT-2 ; method: p24 / ELISA ; measure: EC50 ; strain or isolate: 92HT599 ; result: <1 µM
O=C(OC1[C@H](OC(=O)c2cc(O)c(O)c(O)c2)CC(OC(=O)c2cc(O)c(O)c(O)c2)(C(=O)O)C[C@H]1OC(=O)c1cc(O)c(O)c(O)c1)c1cc(O)c(O)c(O)c1 ; cells: H9 ; method: p24 ; measure: EC50 ; strain or isolate: IIIB ; result: ~6.25 µM
CCCCN1C(=O)N(Cc2ccc3c(N)n[nH]c3c2)[C@H](Cc2ccccc2)[C@H](O)[C@@H](O)[C@H]1Cc1ccccc1 ; cells: MT-2 ; measure: EC90 ; strain or isolate: RF ; result: <1 µM
Cc1cn([C@H]2C=C[C@@H](OCP(=O)(O)O)O2)c(=O)[nH]c1=O ; cells: MT-4 ; method: cytopathic effect ; measure: EC50 ; result: 12 µM